In patent US8329658B2, “Arylalkyl and heteroarylalkyl derivatives of cyclosporine A for the treatment and prevention of viral infection” (Scynexis, Inc., priority 2005, dated 2012):

Tested on: HIV-1IIIB
Test: HIV MTS cytoprotection assay in CEM-SS cells
Format: cell-based, human immunodeficiency virus-1 (HIV)
Conditions: selectivity index, cytotoxicity IC50 / HIV EC50, NS is no significant activity
Description: The compounds of the present invention were tested for antiretroviral activity against human immunodeficiency virus-1 (HIV) using infection of the human T-lymphoblastoid cell line, CEM-SS, with the HIV strain HIV-1IIIB (Weislow et al., 1989, J. Natl. Cancer Inst. 81, 577-586). In this MTS cytoprotection assay, each experiment included cell control wells (cells only), virus control wells (cells plus virus), drug toxicity wells (cells plus drug only), drug colorimetric control wells (drug only) as well as experimental wells (drug plus cells plus virus). Compounds were first dissolved in DMSO and tested using six half-log dilutions, starting with a high concentration of either 20 or 2 μM. […] was added to each well in a volume of 50 μL, the amount of virus determined to give approximately 90% cell killing at 6 days post-infection. At assay termination, assay plates were stained with the soluble tetrazolium-based dye MTS (CellTiter 96 Reagent, Promega) to determine cell viability and quantify compound toxicity. MTS is metabolized by the mitochondria enzymes of metabolically active cells to yield a soluble formazan product, providing a quantitative analysis of cell viability and compound cytotoxicity. The assay was validated in parallel experiments using Zidovudine (3′-azido-3′-deoxythymidine or AZT) as a positive control. The assay included determinations of compound EC50 (concentration inhibiting virus replication by 50%), IC50 (concentration resulting in 50% inhibition of cell growth) and a selectivity index (IC50/EC50).

Row | Molecule | Selectivity IC50/EC50
1 | 3-benzyloxycyclosporin [Compound B] | >52
2 | C/C=C/C[C@@H](C)[C@@H](O)[C@H]1C(=O)N[C@@H](CC)C(=O)N(C)C(OCc2cccs2)C(=O)N(C)[C@@H](CC(C)C)C(=O)N[C@@H](C(C)C)C(=O)N(C)[C@@H](CC(C)C)C(=O)N[C@@H](C)C(=O)N[C@H](C)C(=O)N(C)[C@@H](CC(C)C)C(=O)N(C)[C@@H](CC(C)C)C(=O)N(C)[C@@H](C(C)C)C(=O)N1C (stereo partly drawn) [C, 3-[(thiophene-2-yl)methoxy]cyclosporin] | >22
3 | CC=CCC(C)C(O)C1C(=O)NC(CC)C(=O)N(C)C(SCc2ccccc2)C(=O)N(C)C(CC(C)C)C(=O)NC(C(C)C)C(=O)N(C)C(CC(C)C)C(=O)NC(C)C(=O)NC(C)C(=O)N(C)C(CC(C)C)C(=O)N(C)C(CC(C)C)C(=O)N(C)C(C(C)C)C(=O)N1C (stereo not drawn) [Compound A, 3-benzylthiocyclosporin] | >37
4 | C/C=C/C[C@@H](C)[C@@H](O)[C@H]1C(=O)N[C@@H](CC)C(=O)N(C)C(OCc2ccoc2)C(=O)N(C)[C@@H](CC(C)C)C(=O)N[C@@H](C(C)C)C(=O)N(C)[C@@H](CC(C)C)C(=O)N[C@@H](C)C(=O)N[C@H](C)C(=O)N(C)[C@@H](CC(C)C)C(=O)N(C)[C@@H](CC(C)C)C(=O)N(C)[C@@H](C(C)C)C(=O)N1C (stereo partly drawn) [Compound E, 3-[(furan-3-yl)methoxy]cyclosporin] | >22
5 | C/C=C/C[C@@H](C)[C@@H](O)[C@H]1C(=O)N[C@@H](CC)C(=O)N(C)C(OCc2ccco2)C(=O)N(C)[C@@H](CC(C)C)C(=O)N[C@@H](C(C)C)C(=O)N(C)[C@@H](CC(C)C)C(=O)N[C@@H](C)C(=O)N[C@H](C)C(=O)N(C)[C@@H](CC(C)C)C(=O)N(C)[C@@H](CC(C)C)C(=O)N(C)[C@@H](C(C)C)C(=O)N1C (stereo partly drawn) [D, 3-[(furan-2-yl)methoxy]cyclosporin] | >34
6 | C/C=C/C[C@@H](C)[C@@H](O)[C@H]1C(=O)N[C@@H](CC)C(=O)N(C)C(OCc2ccsc2)C(=O)N(C)[C@@H](CC(C)C)C(=O)N[C@@H](C(C)C)C(=O)N(C)[C@@H](CC(C)C)C(=O)N[C@@H](C)C(=O)N[C@H](C)C(=O)N(C)[C@@H](CC(C)C)C(=O)N(C)[C@@H](CC(C)C)C(=O)N(C)[C@@H](C(C)C)C(=O)N1C (stereo partly drawn) [G, 3-[(thiophene-3-yl)methoxy]cyclosporin] | >7
